Reference: PubChem BioAssay AID624099 (ICCB-Longwood, 2012)
The whole screen tested about 21,000 reagents; this is an unselected part. Over the whole deposit, 497 (2.4%) are marked active. 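Higher z means weaker E2 silencing; only reporter increases were scored, and knock-downs that hurt cell survival may mask genuine repressor factors.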

Screen: 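Human genes that papillomavirus E2 requires to repress the HPV18 LCR promoter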 (primary screen)
System: human C33A cervical carcinoma cells (HPV-negative) stably expressing BPV1 E2 and an HPV18 LCR luciferase reporter
Reagent: siRNA pool against human genes, 40 nM
Time to read-out: 72 h
Detection: 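Per-well luciferase luminescence, z-scored on each plate against the plate mean and SD with control wells left out, then averaged across three replicate plates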
Direction: mean z-score and z-score: higher = stronger reporter signal, weaker E2 silencing
Call rule: 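Hit if mean z-score reaches 2 and two or more of three replicate z-scores also reach 2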

For TUBB6 (GeneID 84617), the entry reads mean z-score -0.33; z-score, replicate A = -0.25; z-score, replicate B = -0.45; z-score, replicate C = -0.28; inactive. Against RBM6 (GeneID 10180), the entry reads mean z-score 0.06; z-score, replicate A = -0.12; z-score, replicate B = -0.19; z-score, replicate C = 0.49; inactive. Knock-down of PEAK3 (GeneID 374872) came out at: mean z-score -0.78; z-score, replicate A = -0.79; z-score, replicate B = -1.04; z-score, replicate C = -0.51; inactive. Silencing of COL6A3 (GeneID 1293) resulted in: mean z-score 1; z-score, replicate A = 1.11; z-score, replicate B = 0.79; z-score, replicate C = 1.11; inactive. With knock-down of OVOL2 (GeneID 58495) the results were mean z-score 1.47; z-score, replicate A = 1.23; z-score, replicate B = 1.53; z-score, replicate C = 1.66; inactive. Against ETV7 (GeneID 51513) the deposit lists mean z-score 0.51; z-score, replicate A = 0.89; z-score, replicate B = 0.68; z-score, replicate C = -0.04; inactive.

Against WDR93 (GeneID 56964), the entry reads mean z-score -0.98; z-score, replicate A = -0.72; z-score, replicate B = -0.92; z-score, replicate C = -1.28; inactive. For LSS (GeneID 4047) the deposit lists mean z-score 0.7; z-score, replicate A = 0.5; z-score, replicate B = 0.71; z-score, replicate C = 0.89; inactive. Silencing of RHCE (GeneID 6006) resulted in: mean z-score 0.3; z-score, replicate A = 0.28; z-score, replicate B = 0.48; z-score, replicate C = 0.14; inactive. For AGBL4 (GeneID 84871), the entry reads mean z-score 0.42; z-score, replicate A = 0.48; z-score, replicate B = 0.59; z-score, replicate C = 0.18; inactive. With knock-down of PTGES2-DT (GeneID 389791), the record shows mean z-score -0.02; z-score, replicate A = -0.17; z-score, replicate B = -0.05; z-score, replicate C = 0.16; inactive. Depletion of BAAT (GeneID 570) came out at: mean z-score 0.96; z-score, replicate A = 1.27; z-score, replicate B = 0.7; z-score, replicate C = 0.9; inactive.

With knock-down of HAAO (GeneID 23498), the record shows mean z-score -1.15; z-score, replicate A = -1.39; z-score, replicate B = -1.15; z-score, replicate C = -0.92; inactive. With knock-down of HS6ST2 (GeneID 90161), the record shows mean z-score 0.34; z-score, replicate A = 0.11; z-score, replicate B = 0.44; z-score, replicate C = 0.46; inactive.
